Results on twelve molecules are retold here after patent US20040072240A1.

Assay [1] concerns the target HLA A2.1 molecule (human). Briefly: T2 cells, flow cytometry (BB7.2); reference I9V; P1Y peptide.
Assay [2] has as its target HLA A2.1 molecule (human). Briefly: T2 cells, flow cytometry (BB7.2); complex dissociation; P1Y peptide.
In assay [3] the target is HLA A2.1 molecule (human). The assay is described as follows: T2 cells, flow cytometry; P1Y variant against its natural peptide.

For YLTPLCVTL (modifications not checked) [P1Y variant of K9L/T], the RA (relative affinity) in assay [1] was 0.4. The DC50 in assay [2] is above 6 h.

Regarding YLTFGWCFKL (modifications not checked) [P1Y variant of P10L], in assay [1], the RA (relative affinity) was 5.

For the molecule YIYQYMDDL (modifications not checked) [P1Y variant of V9L], the DC50 in assay [2] was below 2 h.

Consider YLEEELPRL (modifications not checked) [P1Y variant of HBVpol 594], for which, in assay [3], the DC50 Y1-DC50 WT was above 6 h and the RA WT/RA Y1 is 14.8.

Turning to YLDVGDAYFSV (modifications not checked) [P1Y variant of V11V], the RA (relative affinity) in assay [1] worked out at 2.5. Moreover, in assay [2], the DC50 worked out at 3.5 h.

In turn, YLVNQIIEQL (modifications not checked) [P1Y variant of E10L] displayed an RA (relative affinity) in assay [1] of 10. In assay [2], this molecule had a DC50 below 2 h.

Regarding YLTPLCVSL (modifications not checked) [P1Y variant of K9L], the RA (relative affinity) in assay [1] was found to be 0.7. The DC50 in assay [2] is above 6 h.

Take YLDTGADDTV (modifications not checked) [L10VY]: the RA (relative affinity) in assay [1] is 1.5. Besides, the DC50 in assay [2] came out at 4 h.

In assay [3], YLGCAANWIL (modifications not checked) [P1Y variant of HBV pol 765] yielded a DC50 Y1-DC50 WT of 4 h and an RA WT/RA Y1 of 40.4.

In assay [1], YFHHVAREL (modifications not checked) [P1Y variant of A9L] had an RA (relative affinity) of 7. Further, in assay [2], the DC50 was above 6 h.

In turn, YLVKLWYQL (modifications not checked) [P1Y variant of P9L] came in with an RA (relative affinity) in assay [1] of 4.6. In addition, in assay [2], the DC50 was below 2 h.

Turning to YLRDLLLIV (modifications not checked) [P1Y variant of R9V], the RA (relative affinity) in assay [1] stood at 5.
